{
  "source": "paper PMC7038234",
  "about": "“Screening of Natural Extracts for Inhibitors against Japanese Encephalitis Virus Infection” (Antimicrobial Agents and Chemotherapy, 2020)",
  "data": [
    {"test_system": "JEV strain AT31", "details": "Primary screening of 1034 compounds in the natural extracts library", "units": {"Inhibition (%)": "%"}, "values": [
      {"compound": "CC(=O)O[C@@]12CO[C@@H]1C[C@H](O)[C@@]1(C)C(=O)[C@H](O)C3=C(C)[C@@H](OC(=O)[C@H](O)[C@@H](NC(=O)c4ccccc4)c4ccccc4)C[C@@](O)([C@@H](OC(=O)c4ccccc4)[C@H]21)C3(C)C", "note": "[Deacetyltaxol]", "Inhibition (%)": 39.9853},
      {"compound": "C=C1CC[C@@H]2[C@](C)(COC(=O)CCC(=O)O)[C@H](OC(=O)CCC(=O)O)CC[C@@]2(C)[C@@H]1/C=C/C1=CCOC1=O", "note": "[Dehydroandrographolide succinate]", "Inhibition (%)": 5.39},
      {"compound": "C/C=C/c1cc(OC)c2c(c1)C(C)C(c1ccc(O)c(OC)c1)O2", "note": "(centres unmarked) [Dehydrodiisoeugenol]", "Inhibition (%)": 90.1156},
      {"compound": "C=C1CC[C@@H]2[C@](C)(CO)[C@H](O)CC[C@@]2(C)[C@@H]1/C=C/C1=CCOC1=O", "note": "[Dehydrographkide]", "Inhibition (%)": 79.3338},
      {"compound": "C[C@@]1(C(=O)O)CC[C@]2(C)CC[C@]3(C)C4=CC(=O)c5c(cc(O)c(O)c5C=O)[C@]4(C)CC[C@@]3(C)[C@@H]2C1", "note": "[Demethylzeylasteral]", "Inhibition (%)": -30.5383},
      {"compound": "COc1cc(CCc2cc(OC)c(O)c(OC)c2)ccc1O", "note": "[Dendrophenol]", "Inhibition (%)": 22.5499},
      {"compound": "O=C(O)C1=CO[C@@H](O[C@@H]2O[C@H](CO)[C@@H](O)[C@H](O)[C@H]2O)[C@@H]2C(CO)=C[C@H](O)[C@H]12", "note": "[Desacetyl asperulosidic acid]", "Inhibition (%)": 33.2744},
      {"compound": "COc1ccc([C@@H]2CC(=O)c3c(O)cc(O[C@@H]4O[C@H](CO[C@@H]5O[C@@H](C)[C@H](O)[C@@H](O)[C@H]5O)[C@@H](O)[C@H](O)[C@H]4O)cc3O2)cc1", "note": "[Didymin]", "Inhibition (%)": -2.726},
      {"compound": "O[C@H]1[C@H]2c3cc4c(cc3CN3CC[C@H](C[C@@H]1O)[C@H]23)OCO4", "note": "[Dihydrolycorine]", "Inhibition (%)": 25.2068},
      {"compound": "COc1cc([C@H]2OC[C@@H]3[C@@H]2CO[C@H]3c2cc(OC)c(O[C@@H]3O[C@H](CO)[C@@H](O)[C@H](O)[C@H]3O)c(OC)c2)cc(OC)c1O[C@@H]1O[C@H](CO)[C@@H](O)[C@H](O)[C@H]1O", "note": "[Eleutheroside E]", "Inhibition (%)": 3.332},
      {"compound": "COc1ccc(-c2oc3c(CC=C(C)C)c(O[C@@H]4O[C@H](CO)[C@@H](O)[C@H](O)[C@H]4O)cc(O)c3c(=O)c2O[C@@H]2O[C@@H](C)[C@H](O)[C@@H](O[C@@H]3O[C@H](CO)[C@@H](O)[C@H](O)[C@H]3O)[C@H]2O)cc1", "note": "[Epimedin A1]", "Inhibition (%)": -17.0377},
      {"compound": "COc1ccc(CCc2cc(OC)c(OC)c(OC)c2)cc1O", "note": "[Erianin]", "Inhibition (%)": 41.476},
      {"compound": "COC(=O)[C@@]1(C)CC[C@]2(C(=O)O)CC[C@]3(C)C(=CC[C@@H]4[C@@]5(C)C[C@H](O)[C@H](O[C@@H]6OC[C@@H](O[C@@H]7O[C@H](CO)[C@@H](O)[C@H](O)[C@H]7O)[C@H](O)[C@H]6O)[C@@](C)(CO)[C@@H]5CC[C@]43C)[C@@H]2C1", "note": "[EsculentosideA]", "Inhibition (%)": -5.83},
      {"compound": "CCOC(=O)c1ccc(O)c(O)c1", "note": "[Ethyl 3,4-dihydroxybenzoate]", "Inhibition (%)": -6.413},
      {"compound": "CCOC(=O)/C=C/c1ccc(O)c(OC)c1", "note": "[Ethyl 4'-hydroxy-3'-methoxycinnamate]", "Inhibition (%)": -25.256},
      {"compound": "C=C1C(=O)O[C@@H]2/C=C(\\C)[C@@H](OC(C)=O)C/C=C(\\COC(C)=O)C[C@@H](OC(=O)/C(C)=C/CO)[C@@H]12", "note": "[Eupalinolide A]", "Inhibition (%)": -20.4277},
      {"compound": "CC(=O)O[C@H]1[C@H]2[C@@H](OC(=O)Cc3ccccc3)[C@@H](C)C[C@]2(OC(C)=O)C(=O)/C(C)=C/[C@@H]2[C@H](CC[C@@]13CO3)C2(C)C", "note": "[Euphorbiasteroid]", "Inhibition (%)": 6.592},
      {"compound": "C=C[C@H](O)C#CC#CC/C=C\\CCCCCCC", "note": "[Falcarinol，Panaxynol]", "Inhibition (%)": 91.6948},
      {"compound": "COc1cc2ccc(=O)oc2c(O[C@@H]2O[C@H](CO)[C@@H](O)[C@H](O)[C@H]2O)c1O", "note": "[Fraxin]", "Inhibition (%)": 53.3023},
      {"compound": "C[C@H]1[C@@H](O)CC[C@@H]2[C@]1(C)CC[C@H]1[C@@]2(C)CC[C@@]2(C)[C@@H]3CC(C)(C)CC[C@]3(C)CC[C@]12C", "note": "[Friedelan-3beta-ol]", "Inhibition (%)": 26.256},
      {"compound": "C[C@]12CC[C@H](O)C[C@H]1CC[C@@H]1[C@@H]2[C@H](O)C[C@]2(C)[C@@H](c3ccc(=O)oc3)CC[C@]12O", "note": "[Gamabufalin]", "Inhibition (%)": 64.7453},
      {"compound": "CC(C)=C1C/C=C(\\C)CC/C=C(\\C)CC1=O", "note": "[Germacrone]", "Inhibition (%)": 9.945},
      {"compound": "CCCCCCCCCCCCCc1cccc(O)c1C(=O)O", "note": "[Ginkgolic Acid C13:0]", "Inhibition (%)": -142.743},
      {"compound": "CCCCCC/C=C\\CCCCCCCc1cccc(O)c1C(=O)O", "note": "[Ginkgolic Acid C15:1]", "Inhibition (%)": 98.6651},
      {"compound": "CCCCCC/C=C\\CCCCCCCCCc1cccc(O)c1C(=O)O", "note": "[Ginkgolic Acid C17:1]", "Inhibition (%)": 94.5029},
      {"compound": "C=C(CCC=C(C)C)[C@H]1CC[C@]2(C)[C@@H]1[C@H](O)C[C@@H]1[C@@]3(C)CC[C@H](O[C@@H]4O[C@H](CO)[C@@H](O)[C@H](O)[C@H]4O[C@@H]4O[C@H](CO)[C@@H](O)[C@H](O)[C@H]4O)C(C)(C)[C@@H]3CC[C@]12C", "note": "[Ginsenoside Rk1]", "Inhibition (%)": -23.9454},
      {"compound": "C=C(CCC=C(C)C)[C@H]1CC[C@]2(C)[C@@H]1[C@H](O)C[C@@H]1[C@@]3(C)CC[C@H](O)C(C)(C)[C@@H]3[C@@H](O[C@@H]3O[C@H](CO)[C@@H](O)[C@H](O)[C@H]3O)C[C@]12C", "note": "[Ginsenoside Rk3]", "Inhibition (%)": 88.7674},
      {"compound": "C[C@@H]1CC[C@@]2(OC1)O[C@H]1C[C@H]3[C@@H]4CC[C@H]5C[C@@H](O)[C@H](O)C[C@]5(C)[C@H]4CC[C@]3(C)[C@H]1[C@@H]2C", "note": "[Gitogenin]", "Inhibition (%)": 1.152},
      {"compound": "COc1cc2c(=O)c(-c3ccc(O)cc3)coc2cc1O[C@@H]1O[C@H](CO)[C@@H](O)[C@H](O)[C@H]1O", "note": "[Glycitin]", "Inhibition (%)": 8.88},
      {"compound": "CC1(C)[C@@H](O[C@H]2O[C@H](C(=O)O)[C@@H](O)[C@H](O)[C@H]2O[C@@H]2O[C@H](C(=O)O)[C@@H](O)[C@H](O)[C@H]2O)CC[C@]2(C)[C@H]3C(=O)C=C4[C@@H]5C[C@@](C)(C(=O)O)CC[C@]5(C)CC[C@@]4(C)[C@]3(C)CC[C@@H]12.N", "note": "[Glycyrrhizic acid ammonium salt]", "Inhibition (%)": -4.747},
      {"compound": "C[C@@H]1O[C@@H](O[C@H]2[C@H](O[C@H]3CC[C@@]4(C)[C@@H](CC[C@]5(C)[C@@H]4CC=C4[C@@H]6CC(C)(C)CC[C@]6(C(=O)O[C@@H]6O[C@H](CO[C@@H]7O[C@H](CO)[C@@H](O[C@@H]8O[C@@H](C)[C@H](O)[C@@H](O)[C@H]8O)[C@H](O)[C@H]7O)[C@@H](O)[C@H](O)[C@H]6O)CC[C@]45C)[C@]3(C)CO)OC[C@H](O)[C@@H]2O)[C@H](O)[C@H](O)[C@H]1O", "note": "[Hederacoside C]", "Inhibition (%)": 9.195},
      {"compound": "C[C@@H]1O[C@@H](O[C@H]2[C@H](O)[C@@H](O)[C@H](OC[C@H]3O[C@@H](OC(=O)[C@]45CCC(C)(C)C[C@H]4C4=CC[C@@H]6[C@@]7(C)CC[C@H](O[C@@H]8OC[C@H](O)[C@H](O)[C@H]8O)[C@@](C)(CO)[C@@H]7CC[C@@]6(C)[C@]4(C)CC5)[C@H](O)[C@@H](O)[C@@H]3O)O[C@@H]2CO)[C@H](O)[C@H](O)[C@H]1O", "note": "[Hederacoside D]", "Inhibition (%)": 21.7662},
      {"compound": "CCCCCCCCCCCCCCCC(=O)NCc1ccccc1", "note": "[Hexadecanamide, N-benzyl-]", "Inhibition (%)": 3.903},
      {"compound": "COc1c(O[C@@H]2O[C@H](CO)[C@@H](O)[C@H](O)[C@H]2O)cc2oc(-c3ccc(O)cc3)cc(=O)c2c1O", "note": "[Homoplantaginin]", "Inhibition (%)": -25.4311},
      {"compound": "C[C@@H](CO)[C@@H]1CC[C@@]2(CC[C@]3(C)[C@H](CC[C@@H]4[C@@]5(C)CC[C@H](O[C@@H]6O[C@H](CO)[C@@H](O)[C@H](O)[C@H]6O[C@@H]6O[C@H](CO)[C@@H](O)[C@H](O)[C@H]6O)[C@@](C)(CO[C@@H]6O[C@H](CO)[C@@H](O)[C@H](O)[C@H]6O)[C@@H]5CC[C@]43C)[C@H]2O)CO1", "note": "[Hosenkoside A]", "Inhibition (%)": 9.413},
      {"compound": "C[C@H](CO[C@@H]1O[C@H](CO)[C@@H](O)[C@H](O)[C@H]1O)[C@H]1CC[C@@]2(CC[C@]3(C)[C@H](CC[C@@H]4[C@@]5(C)CC[C@H](O[C@@H]6O[C@H](CO)[C@@H](O)[C@H](O)[C@H]6O[C@@H]6O[C@H](CO)[C@@H](O)[C@H](O)[C@H]6O)[C@@](C)(CO)[C@@H]5CC[C@]43C)[C@H]2O)CO1", "note": "[Hosenkoside B]", "Inhibition (%)": -11.0302},
      {"compound": "C[C@H](CO[C@@H]1O[C@H](CO)[C@@H](O)[C@H](O)[C@H]1O)[C@H]1CC[C@@]2(CC[C@]3(C)[C@H](CC[C@@H]4[C@@]5(C)CC[C@H](O[C@@H]6O[C@H](CO)[C@@H](O)[C@H](O)[C@H]6O[C@@H]6OC[C@@H](O)[C@H](O)[C@H]6O)[C@@](C)(CO)[C@@H]5CC[C@]43C)[C@H]2O)CO1", "note": "[Hosenkoside F]", "Inhibition (%)": -16.7877},
      {"compound": "C/C(=C/CC[C@]1(CO)CC[C@]2(C)[C@H](CC[C@@H]3[C@@]4(C)CC[C@H](O[C@@H]5O[C@H](CO)[C@@H](O)[C@H](O)[C@H]5O[C@@H]5OC[C@@H](O)[C@H](O)[C@H]5O)[C@@](C)(CO[C@@H]5O[C@H](CO)[C@@H](O)[C@H](O)[C@H]5O)[C@@H]4CC[C@]32C)[C@H]1O)CO", "note": "[Hosenkoside G]", "Inhibition (%)": -7.077},
      {"compound": "C[C@@H](CO[C@@H]1O[C@H](CO)[C@@H](O)[C@H](O)[C@H]1O)[C@@H]1CC[C@@]2(CC[C@]3(C)[C@H](CC[C@@H]4[C@@]5(C)CC[C@H](O[C@@H]6O[C@H](CO)[C@@H](O)[C@H](O)[C@H]6O[C@@H]6O[C@H](CO)[C@@H](O)[C@H](O)[C@H]6O)[C@@](C)(CO[C@@H]6O[C@H](CO)[C@@H](O)[C@H](O)[C@H]6O)[C@@H]5CC[C@]43C)[C@H]2O)CO1", "note": "[Hosenkoside K]", "Inhibition (%)": 8.565},
      {"compound": "C[C@@H](CO[C@@H]1O[C@H](CO)[C@@H](O)[C@H](O)[C@H]1O)[C@@H]1CC[C@@]2(CC[C@]3(C)[C@H](CC[C@@H]4[C@@]5(C)CC[C@H](O[C@@H]6O[C@H](CO)[C@@H](O)[C@H](O)[C@H]6O[C@@H]6OC[C@@H](O)[C@H](O)[C@H]6O)[C@@](C)(CO[C@@H]6O[C@H](CO)[C@@H](O)[C@H](O)[C@H]6O)[C@@H]5CC[C@]43C)[C@H]2O)CO1", "note": "[Hosenkoside M]", "Inhibition (%)": -6.853},
      {"compound": "C[C@H]1CC[C@H]2[C@H](C)[C@@H]3CC[C@@H]4[C@@H](C[C@H]5[C@H]4C[C@@H](O)[C@H]4C[C@@H](O)CC[C@@]45C)[C@@H]3CN2C1", "note": "[Hupehenine]", "Inhibition (%)": 5.431},
      {"compound": "O=C1CCc2ccccc2O1", "note": "[Hydrocoumarin]", "Inhibition (%)": -4.613},
      {"compound": "CN1C2CCC1CC(OC(=O)C(CO)c1ccccc1)C2.O=S(=O)(O)O", "note": "(centres unmarked) [Hyoscyamine sulfate hydrate]", "Inhibition (%)": -16.3051},
      {"compound": "CC(C)COC(=O)c1ccc(O)cc1", "note": "[Isobutyl 4-Hydroxybenzoate]", "Inhibition (%)": -13.3913}
    ]}
  ]
}
